According to patent US20170044100A1, “INHIBITORS OF DRUG-RESISTANT MYCOBACTERIUM TUBERCULOSIS” (THE JOHNS HOPKINS UNIVERSITY, priority 2014, published 2017):

Test system: M. tuberculosis strain H37Rv
Assay: microbe, parasite or virus in culture
Type: cell-based
Conditions: Mycobacterium tuberculosis, MABA, at least 90% reduction, average of three measurements, Table 2

O=C(NC1CCCCCCC1)c1cc2c(C(F)(F)F)cc(C(F)(F)F)cc2[nH]1 [Compound 36, N-Cyclooctyl-4,6-bis(trifluoromethyl)-1H-indole-2-carboxamide]
MIC: 0.04 µM (≈ 0.0163 µg/mL)

O=C(NC1CCCCCCC1)c1cc2c(F)cc(F)cc2[nH]1 [Compound 29, N-Cyclooctyl-4,6-difluoro-1H-indole-2-carboxamide]
MIC: 0.1 µM (≈ 0.0306 µg/mL)

≈ marks a conversion by molar mass, not a printed value.
